In paper PMC5114727, “Biological characterization of chemically diverse compounds targeting the Plasmodium falciparum coenzyme A synthesis pathway” (Parasites & Vectors, 2016):

How the values were obtained:
[1] = test system: P. falciparum developmental stages; experiment: Activity across all P. falciparum life-cycle stages tested (asexual, early and late gametocytes); type: cell-based, Plasmodium falciparum
Method: Induction of P. falciparum gametocyte differentiation and gametocyte culturing were performed as previously described. Compound activity against early stage gametocytes (covering the development from stage I to IIb/III) and late stage gametocytes (stage IV to V) of the recombinant P. falciparum line NF54^Pfs16 was assessed in concentration-response assays, in two experimental replicates consisting of two technical repeats each, at a highest concentration of 40 μM, as described earlier.

[2] = test system: T. b. brucei trypomastigote; experiment: T. b. brucei resazurin (Alamar Blue) viability assay; type: cell-based, Trypanosoma brucei brucei; conditions: HEK293 cytotoxicity from ref 22
Method: Compound activity against two members of another clinically important group of parasites, the kinetoplastids T. cruzi and T. b. brucei was determined. The sensitive high content imaging assay used to determine compound activity against T. cruzi assesses the intracellular amastigote life form of the parasite in the 3T3 host cell. […] The T. b. brucei assay employs the REDOX indicator Alamar Blue to assess viability, which was developed into a 384-well assay format.
Compound activity against T. b. brucei was assessed in a resazurin-based viability assay in concentration-response assays, without technical repeats, in two experimental replicates at a highest concentration of 40 μM, as previously described.

Compound | overall SI over human embryonic kidney cells (HEK293) [1] | SI over HEK293 (T. b. brucei trypomastigote) [2]
Cc1csc(Sc2ncnc3sccc23)n1 [Amb180780] | > 482 | 
CCc1ccc(Nc2cc(C)c3ccc(O)cc3n2)cc1.Cl [MMV000570] |  | 6.8
CC1=CC(=O)C(C(C)C)=C/C1=N/OS(=O)(=O)c1ccccc1 [STK 740987] | above 94 | 
